Our source for the Initial rate of cleavage of HV62 (nmol · min^-1mg^-1) values is patent publication US20080032931A1, “ACTIVATABLE CLOSTRIDIAL TOXINS” (published 2008).

For the assay, the target named is HV62, synthetic peptide corresponding to residues 33 to 94 of human VAMP-2 (human) (UniProt P63027).

Take “native TeNT (tetanus neurotoxin) (enzyme)”: the Initial rate of cleavage of HV62 (nmol · min^-1mg^-1) came to 20.3.
